PubChem BioAssay AID449728 (The Scripps Research Institute Molecular Screening Center, 2010)
The list shows a part of the results, in another mix than the full data. Calls of active or inactive are those of the source.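 How the source made its calls: active means inhibition above the campaign's mean inhibition across all tested compounds plus 3 SD (cut at about 9.9% in these data); inactive means the rest.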

Assay: bacterial viability reduction in E. coli – absorbance, OD600, counter-screen for AddAB inhibitor project, primary screen (AID 449728);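 further: uninfected addAB+ strain grown without phage in ampicillin broth; 0% = DMSO wells and 100% = ciprofloxacin 0.95 µg/ml wells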
Details: E. coli V3065 growth, 18 h, at 11.9 µM, stronger effect = higher value

| Compound | inhibition |
| --- | --- |
| O=C(NCC1(N2CCCCC2)CCCCC1)c1cncc(Br)c1 | inactive: -0.88% |
| CN1CCC(Nc2cccc(F)c2)CC1 | inactive: -0.25% |
| COc1cc(OC)c(C(=O)NCC2(N(C)C)CCCCC2)cc1OC | inactive: 0% |
| O=C(NCC1(N2CCOCC2)CCCCC1)c1cc(F)c(F)cc1Cl | inactive: -0.44% |
| CC(C)c1ccc(NC2CCN(C(=O)OC(C)(C)C)CC2)cc1 | inactive: 0% |
| COc1ccc(CN(CCCl)CCCl)cc1Cl | inactive: 0.37% |
| CN(C)c1cccc(C(=O)NCC2(N3CCCCC3)CCCCC2)c1 | inactive: -1.26% |
| COc1cc(C(=O)NCC2(N3CCCCC3)CCCCC2)ccc1OC(F)F | inactive: 0.77% |
| O=C(NCC1(N2CCOCC2)CCCCC1)c1cc(=O)[nH]c2ccccc12 | inactive: -1.19% |
| CN1CCN(CCOC(=O)C(O)(c2ccccc2)c2ccccc2)CC1 | inactive: 0.34% |
| COc1ccc(NC2CCN(C(=O)OC(C)(C)C)CC2)cc1 | inactive: 1.26% |
| O=C(NCC1(N2CCCCC2)CCCCC1)c1cccc(C(F)(F)F)c1 | inactive: -1.46% |
| CCN1CCC(Nc2ccc(Cl)cc2)CC1 | inactive: -0.69% |
| N#CC1(Nc2ccccc2)CCN(CCc2ccccc2)CC1 | inactive: 1.18% |
| O=C(NCC1(N2CCCCC2)CCCCC1)c1cccc([N+](=O)[O-])c1 | inactive: 2.37% |
| O=C(NCC1(N2CCCCC2)CCCCC1)c1ccc(OC(F)F)cc1 | inactive: -0.25% |
| CCOC(=O)N1CCC(Nc2cccc(C)c2)CC1 | inactive: -0.17% |
| Cc1ccc(OCC(C)C)c(CN(CCCl)CCCl)c1 | inactive: -0.17% |
| O=C(NCC1(N2CCCCC2)CCCCC1)c1ccc(F)cc1 | inactive: 0.76% |
| COc1ccc(NC2CCN(CCc3ccccc3)CC2)c(OC)c1 | inactive: 0.83% |
| CCOc1ccc(C)cc1CN(CCCl)CCCl | inactive: -2.47% |

| Compound | inhibition |
| --- | --- |
| O=C(OC1CN2CCC1CC2)C1c2ccccc2Oc2ccccc21 (stereo not drawn) | inactive: -1.9% |
| O=C(NCC1(N2CCCCC2)CCCCC1)c1ccc(Cl)s1 | inactive: 2.99% |
| N#CC1(Nc2ccccc2)CCN(Cc2ccccc2)CC1 | inactive: 0.41% |
| COc1ccc(Cl)cc1C(=O)NCC1(N2CCOCC2)CCCCC1 | inactive: -0.35% |
| CCOC(=O)N1CCC(Nc2ccc(OC)cc2)CC1 | inactive: -1.22% |
| O=C(NCC1(N2CCCCC2)CCCCC1)c1ccc(Cl)nc1 | inactive: -1.39% |
| Cc1cc(C)cc(N(C(=O)c2ccccc2)C2CCN(C(=O)OC(C)(C)C)CC2)c1 | inactive: -1.73% |
| O=C(NCC1(N2CCOCC2)CCCCC1)c1cc2ccccc2o1 | inactive: 1.02% |
| CSc1ccccc1C(=O)NCC1(N2CCCCC2)CCCCC1 | inactive: -2.12% |
| COc1ccc(C(=O)NCC2(N3CCCCC3)CCCCC2)cc1 | inactive: 3.14% |
| CC(C)(C)OC(=O)N1CCC(N(C(=O)c2ccccc2)c2ccc(F)cc2)CC1 | inactive: 1.17% |
| COc1ccc(C(=O)NCC2(N3CCCCC3)CCCCC2)c(OC)c1OC | inactive: -1.35% |
| O=C(NCC1(N2CCCCC2)CCCCC1)c1ccc(=O)[nH]c1 | inactive: 0.94% |
| O=C(NCC1(N2CCCCC2)CCCCC1)c1cccs1 | inactive: 0.84% |
| CN1CCC(Nc2ccc(Cl)cc2)CC1 | inactive: -0.52% |
| CCCOc1ccc(C)cc1CN(CCCl)CCCl | inactive: 1.96% |
| COc1cc(OC)cc(C(=O)NCC2(N3CCOCC3)CCCCC2)c1 | inactive: -0.17% |
| COc1cccc(C(=O)N(c2cc(C)cc(C)c2)C2CCN(C(=O)OC(C)(C)C)CC2)c1 | inactive: -0.63% |
| CCC(CO)(C(=O)OC1CN2CCC1CC2)c1ccccc1 (stereo not drawn) | inactive: 1.35% |
| CC(C)(C)OC(=O)N1CCC(Nc2ccccc2)CC1 | inactive: 0.51% |
| O=C(O)C1(Nc2ccccc2)CCN(Cc2ccccc2)CC1 | inactive: 1.81% |

| Compound | inhibition |
| --- | --- |
| CCCOc1ccc(C(=O)NCC2(N(C)C)CCCCC2)cc1 | inactive: 0% |
| CCOc1ncccc1C(=O)NCC1(N2CCOCC2)CCCCC1 | inactive: -0.58% |
| CN1CCC(Nc2ccc(F)c(Cl)c2)CC1 | inactive: 0.17% |
| O=C(NCC1(N2CCCCC2)CCCCC1)c1ccco1 | inactive: -0.71% |
| CN(C)c1ccc(C(=O)NCC2(N3CCCCC3)CCCCC2)cc1 | inactive: -2.01% |
| CCN1CCC(Nc2cccc(F)c2)CC1 | inactive: -1.21% |
| Cc1ccc(C(=O)NCC2(N3CCCCC3)CCCCC2)o1 | inactive: -3.21% |
| Fc1ccccc1NC1CCN(Cc2ccccc2)CC1 | inactive: 2.38% |
| COc1cc(OC)cc(C(=O)NCC2(N3CCCCC3)CCCCC2)c1 | inactive: 1.45% |
| CN(C)C1(CNC(=O)c2cccc(C#N)c2)CCCCC1 | inactive: 1.09% |
| c1ccc(CN2CCC(Nc3ccccc3)CC2)cc1 | inactive: -0.58% |
| CCCN1CCC(Nc2cc(OC)cc(OC)c2)CC1 | inactive: 1.03% |
| N#Cc1ccc(C(=O)NCC2(N3CCCCC3)CCCCC2)cc1 | inactive: -2.63% |
| CC(C)(C)OC(=O)N1CCC(N(C(=O)c2ccccc2)c2ccc(Cl)cc2)CC1 | inactive: 1.72% |
| O=C(OC1CN2CCC1CC2)C1c2ccccc2C=Cc2ccccc21 (stereo not drawn) | inactive: -1.66% |
| CCc1cc(C(=O)NCC2(N3CCCCC3)CCCCC2)sc1C | inactive: 1.21% |
| CCOC(=O)N1CCC(Nc2ccc(C)cc2)CC1 | inactive: -0.52% |
| N/C(=N\O)c1c(N)no[n+]1[O-] | inactive: -0.18% |
| COc1ccc(C(=O)NCC2(N3CCOCC3)CCCCC2)cc1OC | inactive: 2.54% |
| COc1cc(C(=O)NCC2(N3CCOCC3)CCCCC2)cc(OC)c1C | inactive: 1.15% |
| O=C(NCC1(N2CCOCC2)CCCCC1)c1cc(Br)ccc1Cl | inactive: 0.35% |
